Anti-infective test results gathered from many reports (values: NIAID ChemDB through PubChem).

Shared fields: host cell toxicity; cell line: VERO; endpoint: CC50

Lines come from different laboratories, so protocols vary.

| smiles | read by | value |
|---|---|---|
| CC1=C2CC(C)(C)C[C@H]2[C@H](OC(=O)[C@H](O)[C@@H](NC(=O)c2ccccc2)c2ccccc2)c2cocc2C1 | - | 271.1 µg/mL |
| CCCCCCCCCCCCCCCC(=O)OC[C@H]1O[C@H](OC(=O)NS(=O)(=O)OC[C@H]2O[C@@H](n3ccc(=O)[nH]c3=O)[C@H](OC(C)C)[C@@H]2OC(C)C)[C@H](OC(=O)CCCCCCCCCCCCCCC)[C@@H](OC(=O)CCCCCCCCCCCCCCC)[C@@H]1OC(=O)CCCCCCCCCCCCCCC | - | 50 µg/mL |
| CC[C@H](/C=C/[C@@H](C)[C@H]1CC[C@H]2[C@@H]3CC=C4C[C@@H](O)CC[C@]4(C)[C@H]3CC[C@]12C)C(C)C | - | >102 µg/mL |
| CO[C@H]1/C=C/O[C@@]2(C)Oc3c(C)c(O)c4c(O)c(c(/C=N/N5CCN(Cc6ccccc6)CC5)c(O)c4c3C2=O)NC(=O)/C(C)=C\C=C\[C@H](C)[C@H](O)[C@@H](C)[C@@H](O)[C@@H](C)[C@H](OC(C)=O)[C@@H]1C | - | 14.16 µg/mL |
| CC[C@H](CC[C@@H](C)[C@H]1CC[C@H]2[C@@H]3C[C@@H](O)C4=CC(=O)CC[C@]4(C)[C@H]3CC[C@]12C)C(C)C | - | >102 µg/mL |
| CCCCCCCCCCCCCC(=O)N[C@@H](C)C(=O)N1C[C@@H](O)C[C@H]1C(=O)N[C@@H](CC(C)C)C(=O)N[C@H](C(=O)N[C@@H](CCC(N)=O)C(=O)N[C@@H](CC(C)C)C(=O)OC)C(C)C | - | 36 µM |
| O=C1c2ccccc2C(=O)N1CCC1=NNC(=Nc2ccccc2)SC1 | - | 192 µg/mL |
| CCc1ccccc1NC(=O)c1c(C)n([O-])c2ccc(C)cc2[n+]1=O | - | >100 µg/mL |
| Nc1nccc2c1ncn2[C@@H]1O[C@H](CO)C[C@H]1O | - | 200 µg/mL |
| O=[N+]([O-])c1cnc(Sc2cncc[n+]2[O-])s1 | - | 5.03 µg/mL |
| CC(C1=NNC(=Nc2ccccc2)SC1)N1C(=O)c2ccccc2C1=O | - | 1000 µg/mL |
| COC(C)c1cn([C@H]2C[C@H](O)[C@@H](CO)S2)c(=O)[nH]c1=O | - | >500 µM |
| CC1(C)C[C@H]2[C@@H](OC(=O)[C@H](O)[C@@H](NC(=O)c3ccccc3)c3ccccc3)C3=C(C[C@](C)(O)[C@H]2C1)C(=O)OC3 | - | 135.8 µg/mL |
| CC[C@H](CC[C@@H](C)[C@H]1CC[C@H]2[C@@H]3C(=O)C=C4C[C@@H](O)CC[C@]4(C)[C@H]3CC[C@]12C)C(C)C | - | >102 µg/mL |
| Nc1nccc2c1ncn2[C@H]1CC[C@@H](CO)O1 | - | 200 µg/mL |
| CCN(CC)CCN(C)c1ccc(CO)c2sc3cc(Cl)ccc3c(=O)c12 | - | 3.52 µg/mL |
| COCC(=O)NC(CCSC[C@H]1O[C@@H](n2ccc3c(N)ncnc32)[C@H](O)[C@@H]1O)C(=O)OC(C)C | - | 400 µg/mL |
| O=c1[nH]c(=O)n([C@H]2C[C@H](O)[C@@H](CO)S2)cc1F | - | 93 µM |
| Cn1cnc2c(NC(=O)c3cccc(C(F)(F)F)c3)nc(Cl)cc21 | MTT | 183 µM |
| COc1cccc2c1[n+]([O-])c1cccc(O)c1[n+]2[O-] | - | 20 µg/mL |
| C[C@@]1(CO)C[C@H]2[C@H](OC(=O)[C@H](O)[C@@H](NC(=O)c3ccccc3)c3ccccc3)C3=C(C[C@](C)(O)[C@H]2C1)C(=O)OC3 | - | 325.4 µg/mL |
| CCc1ccccc1NC(=O)c1c(C)n([O-])c2ccc(Cl)cc2[n+]1=O | - | >100 µg/mL |
| Nc1ncnc2c1ncn2[C@@H]1O[C@H](CCl)C[C@H]1O | - | 40 µg/mL |
| Cc1c(CN2CCN(C)CC2)cc(-c2ccccc2)n1-c1cccc2ccccc12 | - | 2 µg/mL |
| O=C1c2ccccc2C(=O)N1C(Cc1ccccc1)C1=NNC(=Nc2ccccc2)SC1 | - | 53.41 µg/mL |
| C/C=[N+](\NC(=O)CCCC(=O)N/[N+](=C\C)C1(O)Cc2c(O)c3c(c(O)c2C(OC2CC(N)C(O)C(C)O2)C1)C(=O)c1c(OC)cccc1C3=O)C1(O)Cc2c(O)c3c(c(O)c2C(OC2CC(N)C(O)C(C)O2)C1)C(=O)c1c(OC)cccc1C3=O | - | 0.79 µg/mL |
| CC(=O)c1c(C)n([O-])c2ccc(C)cc2[n+]1=O | - | >62.5 µg/mL |
| Cc1c(CN2CCSCC2)cc(-c2ccccc2)n1-c1ccccc1 | - | 32 µg/mL |
| CC(=O)c1c(C)n([O-])c2ccc(Cl)cc2[n+]1=O | - | 15.7 µg/mL |
| CC(=O)N[C@H]1[C@@H](OC(=O)NS(=O)(=O)OC[C@H]2O[C@@H](n3ccc(=O)[nH]c3=O)[C@H](OC(C)C)[C@@H]2OC(C)C)O[C@H](COC(=O)c2ccccc2)[C@@H](OC(=O)c2ccccc2)[C@@H]1OC(=O)c1ccccc1 | - | 100 µg/mL |
| CN(C)C(=S)SCN1C(=O)c2ccccc2C1=O | - | 1.7 µg/mL |
| [N-]=[N+]=Nc1c(-c2ccccc2)c(-c2ccccc2)n(COCCO)c1-c1ccccc1 | - | 65 µM |
| CCc1ccccc1NC(=O)c1c(C)n([O-])c2cc(F)c(F)cc2[n+]1=O | - | >30 µg/mL |
| CC(C1=NNC(=Nc2ccccc2F)SC1)N1C(=O)c2ccccc2C1=O | - | 21.38 µg/mL |
| CCOc1ccc2c(c1)n([O-])c1cc(Br)ccc1[n+]2=O | - | 20.56 µg/mL |
| Cn1cnc2c(NC(=O)c3ccc(C(F)(F)F)cc3)nc(Cl)cc21 | MTT | 162 µM |
| Cc1c(C(=O)c2ccccc2)[n+](=O)c2ccccc2n1[O-] | - | >62.5 µg/mL |
| Cc1c(C(=O)NCc2ccc3c(c2)OCO3)[n+](=O)c2cc(Cl)ccc2n1[O-] | - | >40 µg/mL |
| CC1=CC(=Nc2ccc(N(C)C)cc2)C=C(C)C1=O | - | 1.82 µg/mL |
| CCCOC(=O)CSc1nnc(-c2ncc([N+](=O)[O-])n2C)s1 | - | >10 µg/mL |
| CCOC(=O)c1c(Cl)c(-c2ccccc2)n(COCCO)c1C | - | 111 µM |
| CC1(C)C[C@H]2[C@H](OC(=O)[C@H](O)[C@@H](NC(=O)c3ccccc3)c3ccccc3)C34COC(=O)C3(C4)C[C@](C)(O)[C@H]2C1 | - | 381.8 µg/mL |
| CC1(C)Oc2cc3oc(C(=O)O)cc(=O)c3cc2-c2ccccc21 | - | 262.3 µg/mL |
| CCCCCCCCCCCCCC(=O)NC(C)(C)C(=O)N1C[C@@H](O)C[C@H]1C(=O)N[C@@H](CC(C)C)C(=O)N[C@H](C(=O)N[C@@H](CCC(N)=O)C(=O)N[C@@H](CC(C)C)C(=O)OC)C(C)C | - | 20 µM |
| O=C(CCl)NNC1=Nc2ccc(Cl)cc2SC1 | - | 0.89 µg/mL |
| CC(=O)OCCOCn1c(-c2ccccc2)c(-c2ccccc2)c([N+](=O)[O-])c1-c1ccccc1 | - | >300 µM |
| Cc1c(CN2CCN(C)CC2)cc(-c2ccccc2)n1-c1ccccc1Cl | - | 4 µg/mL |
| CCN(CC)C(=S)SSC(=S)N(CC)CC | - | 1.34 µg/mL |
| O=C(O[C@@H]1[C@@H]2C(=O)c3cc(O)c(O)c(O)c3-c3c(cc(O)c(O)c3O)C(=O)OC[C@H]2OC(O)[C@@H]1O)c1cc(O)c(O)c(O)c1 | - | 18.13 µg/mL |
| CC(C)(C)c1cc(C(C)(C)C)c2oc(-c3ccccn3)nc2c1 | - | 32.9 µg/mL |
| CCOC(=O)c1c(Br)c(-c2ccccc2)n(COCCOC(C)=O)c1-c1ccccc1 | - | 47 µM |
| O=C(CSc1nnc(-c2ccc([N+](=O)[O-])o2)s1)OCc1ccccc1 | - | 4.7 µg/mL |
| CC(C1=NN=C(N(C)C)SC1)N1C(=O)c2ccccc2C1=O | - | 333 µg/mL |
| Cc1ccc2c(c1)[n+](=O)c(C(=O)c1ccccc1)c(C)n2[O-] | - | >10 µg/mL |
| CC(C)O[C@@H]1[C@H](OC(C)C)[C@@H](COS(=O)(=O)NC(=O)O[C@H]2O[C@H](COC(=O)c3ccccc3)[C@@H](OC(=O)c3ccccc3)[C@H](OC(=O)c3ccccc3)[C@H]2OC(=O)c2ccccc2)O[C@H]1n1ccc(=O)[nH]c1=O | - | 100 µg/mL |
| NC(=O)C(=O)CC(=O)c1ccccc1NC1=CC(=O)C(=O)c2ccccc21 | - | >10 µg/mL |
| CC(=O)c1c(C)n([O-])c2cc(C)c(C)cc2[n+]1=O | - | >62.5 µg/mL |
| CC(C)(C)c1cc(C(C)(C)C)c2oc(-c3ccccc3Br)nc2c1 | - | 53.6 µg/mL |
| CC(C)CC(C1=NNC(=Nc2ccccc2)SC1)N1C(=O)c2ccccc2C1=O | - | 192 µg/mL |
| OCCOCn1c(-c2ccccc2)c(Br)c(Br)c1-c1ccccc1 | - | 51 µM |
| [O-][n+]1c2ccccc2[n+]([O-])c2c3ccccc3[nH]c21 | - | 6.05 µg/mL |
| Nc1ncnc2c([C@@H]3O[C@H](CCl)[C@@H](O)[C@H]3O)[nH]nc12 | - | 200 µg/mL |
| Cc1c(CN2CCSCC2)cc(-c2ccccc2)n1-c1ccccc1F | - | 8 µg/mL |
| CN(C)C(=O)Sc1ccc(-c2c(-c3ccccc3)oc3ccc4ccccc4c23)cc1 | - | >500 µg/mL |
| CCCCCCCCCCCCCC(=O)NC(C)(C)C(=O)N1C[C@@H](O)CC1C(=O)N[C@@H](CC(C)C)C(=O)N[C@H](C(=O)N[C@@H](CCC(N)=O)C(=O)N[C@H](CO)CC(C)C)C(C)C | - | 4 µM |
| O=c1[nH]c(=O)n([C@H]2C[C@H](O)[C@@H](CO)S2)cc1Br | - | >500 µM |
| Cc1c(CN2CCSCC2)cc(-c2ccccc2Cl)n1-c1ccccc1 | - | 2 µg/mL |
| CC(=O)NC(CCSC[C@H]1O[C@@H](n2ccc3c(N)ncnc32)[C@H](O)[C@@H]1O)C(=O)OC(C)C | - | 200 µg/mL |
| CCC(C)c1cn([C@H]2C[C@H](O)[C@@H](CO)S2)c(=O)[nH]c1=O | - | >500 µM |
| CC(C1=NNC(=Nc2ccccc2)SC1)N1C(=O)c2cccc([N+](=O)[O-])c2C1=O | - | 481 µg/mL |
| O=C(Nn1c(=O)c(=O)oc2ccccc21)C(F)(F)F | - | 16.9 µg/mL |
| O=C1c2ccccc2C(=O)N1CC1=NNC(=Nc2ccccc2)SC1 | - | 192 µg/mL |
| CC(=O)O[C@H]1C[C@H](n2cc(C)c(=O)[nH]c2=O)O[C@@H]1COS(=O)(=O)NC(=O)O[C@H]1O[C@H](COC(=O)c2ccccc2)[C@@H](OC(=O)c2ccccc2)[C@H](OC(=O)c2ccccc2)[C@H]1OC(=O)c1ccccc1 | - | 150 µg/mL |
| CC[C@H](CC[C@@H](C)[C@H]1CC[C@H]2[C@@H]3CC=C4C[C@@H](O)CC[C@]4(C)[C@H]3CC[C@]12C)C(C)C | - | >102 µg/mL |
| CCCCC/C=C/C/C=C/CCCCCCCC(=O)NC(C)(C)C(=O)N1C[C@@H](O)C[C@H]1C(=O)N[C@@H](CC(C)C)C(=O)N[C@H](C(=O)N[C@@H](CCC(N)=O)C(=O)N[C@@H](CC(C)C)C(=O)OC)C(C)C | - | 28 µM |
| CCS(=O)(=O)O.OC1CC2CCC(C1)N2CCCN1c2ccccc2Sc2ccc(Cl)cc21 | - | >500 µg/mL |
| CCCCCCCCCCCCCCCCCC(=O)NC(C)(C)C(=O)N1C[C@@H](O)C[C@H]1C(=O)N[C@@H](CC(C)C)C(=O)N[C@H](C(=O)N[C@@H](CCC(N)=O)C(=O)N[C@@H](CC(C)C)C(=O)OC)C(C)C | - | 25 µM |
| Cc1nc(/N=C(\N)Nc2ccc(Cl)c(Cl)c2)ncc1N1CCC(N2CCCC2)CC1 | - | 1.97 µg/mL |
| O=C(NS(=O)(=O)OCCOCn1ccc(=O)[nH]c1=O)O[C@H]1O[C@H](COCc2ccccc2)[C@@H](OCc2ccccc2)[C@H](OCc2ccccc2)[C@H]1OCc1ccccc1 | - | 75 µg/mL |
| CCN(CC)Cc1cc(Nc2nc(/C=C/c3ccc(Cl)cc3)nc(Cl)c2-c2ccc(Cl)cc2)ccc1O | - | 5.12 µg/mL |
| CC(=O)NC(CCSC[C@H]1O[C@@H](n2ccc3c(N)ncnc32)[C@H](O)[C@@H]1O)C(=O)O | - | >400 µg/mL |
| CCCCOC(=O)CSc1nnc(-c2ncc([N+](=O)[O-])n2C)s1 | - | >10 µg/mL |
| CCc1ccccc1NC(=O)c1c(C)n([O-])c2ccc(C(F)(F)F)cc2[n+]1=O | - | >30 µg/mL |
| CC(C1=NNC(=NCc2ccccc2)SC1)N1C(=O)c2ccccc2C1=O | - | 192 µg/mL |
| CCc1ccccc1NC(=O)c1c(C)n([O-])c2ccc(F)cc2[n+]1=O | - | >100 µg/mL |
| OC(c1cc(-c2ccc(Cl)cc2)nc2ccccc12)C1CCCCN1 | - | 12 µg/mL |
| N#Cc1c([N+](=O)[O-])c(-c2ccccc2)n(COCCO)c1-c1ccccc1 | - | >300 µM |

For reference, 9 entries again:

CCN(CC)Cc1cc(Nc2nc(/C=C/c3ccc(Cl)cc3)nc(Cl)c2-c2ccc(Cl)cc2)ccc1O ; value: 5.12 µg/mL
CC(C)O[C@@H]1[C@H](OC(C)C)[C@@H](COS(=O)(=O)NC(=O)O[C@H]2O[C@H](COC(=O)c3ccccc3)[C@@H](OC(=O)c3ccccc3)[C@H](OC(=O)c3ccccc3)[C@H]2OC(=O)c2ccccc2)O[C@H]1n1ccc(=O)[nH]c1=O ; value: 100 µg/mL
Cc1c(C(=O)c2ccccc2)[n+](=O)c2ccccc2n1[O-] ; value: >62.5 µg/mL
CC(C1=NNC(=Nc2ccccc2F)SC1)N1C(=O)c2ccccc2C1=O ; value: 21.38 µg/mL
CCC(C)c1cn([C@H]2C[C@H](O)[C@@H](CO)S2)c(=O)[nH]c1=O ; value: >500 µM
CC(C)(C)c1cc(C(C)(C)C)c2oc(-c3ccccc3Br)nc2c1 ; value: 53.6 µg/mL
CC(C1=NNC(=NCc2ccccc2)SC1)N1C(=O)c2ccccc2C1=O ; value: 192 µg/mL
CC(=O)N[C@H]1[C@@H](OC(=O)NS(=O)(=O)OC[C@H]2O[C@@H](n3ccc(=O)[nH]c3=O)[C@H](OC(C)C)[C@@H]2OC(C)C)O[C@H](COC(=O)c2ccccc2)[C@@H](OC(=O)c2ccccc2)[C@@H]1OC(=O)c1ccccc1 ; value: 100 µg/mL
CCc1ccccc1NC(=O)c1c(C)n([O-])c2ccc(C(F)(F)F)cc2[n+]1=O ; value: >30 µg/mL

CCn is the concentration with n% toxicity to the cells. An empty or dashed field is not shown.